PubChem BioAssay AID1259414 – Drosophila RNAi Screening Center – 2018

Purpose: 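Host factors increasing or decreasing Wolbachia levels in cultured fly cells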 (primary screen)
Cell system: Drosophila JW18 cells infected with Wolbachia
Reagent: long dsRNA against Drosophila genes, 0.25 µg dsRNA per well of a 384-well plate
Duration: 5 days
Conditions: cells persistently infected with Wolbachia before knock-down; no added drug
Detection: 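Imaged fluorescence in situ signal for Wolbachia 23S rRNA per DAPI-counted host cell, given as a robust z-score within each plate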
Scale: Wolbachia per cell robust z: higher = more Wolbachia per host cell than the plate typical
Call rule: 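Hit when robust z is 1.5 or more, or -1.5 or less, in at least two of three replicates; excludes dsRNAs with several or no targets, genes not expressed in JW18 and well A1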
In all, the deposit lists about 24,000 reagents; shown is a random part of those with a known target gene and a result. In the full data, about 1,210 (5%) got an active call. 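Inactive calls also include excluded dsRNAs with several or no targets, genes unexpressed in JW18, and well A1, regardless of score.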 Unmarked entries are inactive.

CG14839 [DRSC14963]: Wolbachia per cell robust z, rep 1 = -0.457; Wolbachia per cell robust z, rep 2 = 0.256; Wolbachia per cell robust z, rep 3 = -2.01
CG14839 [DRSC27307]: Wolbachia per cell robust z, rep 1 = -1.07; Wolbachia per cell robust z, rep 2 = -1.15; Wolbachia per cell robust z, rep 3 = -0.371
CG8516 [DRSC16437]: Wolbachia per cell robust z, rep 1 = -0.365; Wolbachia per cell robust z, rep 2 = 0.374; Wolbachia per cell robust z, rep 3 = -1.24
CG12493 [DRSC08279]: Wolbachia per cell robust z, rep 1 = -0.442; Wolbachia per cell robust z, rep 2 = -0.933; Wolbachia per cell robust z, rep 3 = -3.55
CG12493 [DRSC25535]: Wolbachia per cell robust z, rep 1 = -1.13; Wolbachia per cell robust z, rep 2 = 0.0398; Wolbachia per cell robust z, rep 3 = 0.0703
ste24a (prenyl protease type I) [DRSC07314]: Wolbachia per cell robust z, rep 1 = -0.545; Wolbachia per cell robust z, rep 2 = 0.232; Wolbachia per cell robust z, rep 3 = 0.34
ste24a (prenyl protease type I) [DRSC26491]: Wolbachia per cell robust z, rep 1 = -0.871; Wolbachia per cell robust z, rep 2 = -0.739; Wolbachia per cell robust z, rep 3 = -0.222
CG42393 [DRSC40578]: Wolbachia per cell robust z, rep 1 = 0.373; Wolbachia per cell robust z, rep 2 = -0.912; Wolbachia per cell robust z, rep 3 = -0.373
Usp30 (Ubiquitin specific protease 30) [DRSC18265]: Wolbachia per cell robust z, rep 1 = -0.0578; Wolbachia per cell robust z, rep 2 = -6.1; Wolbachia per cell robust z, rep 3 = -0.14
Usp30 (Ubiquitin specific protease 30) [DRSC29538]: Wolbachia per cell robust z, rep 1 = -0.793 (active); Wolbachia per cell robust z, rep 2 = -1.7; Wolbachia per cell robust z, rep 3 = -1.73
CG42340 [DRSC17458]: Wolbachia per cell robust z, rep 1 = -0.467; Wolbachia per cell robust z, rep 2 = 0.645; Wolbachia per cell robust z, rep 3 = 0.414
CG42340 [DRSC17841]: Wolbachia per cell robust z, rep 1 = -0.446; Wolbachia per cell robust z, rep 2 = -2.33; Wolbachia per cell robust z, rep 3 = -2.71
CG42340 [DRSC18305]: Wolbachia per cell robust z, rep 1 = -0.35; Wolbachia per cell robust z, rep 2 = 0.292; Wolbachia per cell robust z, rep 3 = 0.339
CG42340 [DRSC21619]: Wolbachia per cell robust z, rep 1 = -0.0908; Wolbachia per cell robust z, rep 2 = 0.218; Wolbachia per cell robust z, rep 3 = -1.52
CG42340 [DRSC23657]: Wolbachia per cell robust z, rep 1 = 0.724; Wolbachia per cell robust z, rep 2 = 2.35; Wolbachia per cell robust z, rep 3 = 0.367

Reagents listed above with an active call, once more:
Usp30 (Ubiquitin specific protease 30) [DRSC29538]: Wolbachia per cell robust z, rep 1 = -0.793 (active); Wolbachia per cell robust z, rep 2 = -1.7; Wolbachia per cell robust z, rep 3 = -1.73
